Values joined by “and” are separate entries in the source; they are usually repeats but may differ in a detail not shown here. Equal entries are not always repeated.
Columns and labels:
[1] = molecular target: T1, SARS-CoV-2 NSP3 macrodomain (Mac1) (Severe acute respiratory syndrome coronavirus 2, UniProt P0DTD1)
[2] = molecular target: T1, SARS-CoV-2 NSP3 macrodomain (Mac1); remark: listed apart in the source

## Cc1c[nH]c2ncnc(NCC3(O)CCCCC3)c12 [AVI-3761, 1-(((5-methyl-7H-pyrrolo[2,3-d]pyrimidin-4-yl)amino)methyl)cyclohexan-1-ol]
[1]
  Hill slope: 1.1
  Hillslope: 1.1
[2]
  1-BDC: 0.2
  1-BDC (PanDDA run, DMSO background map): 0.2 and 0.19
  2*(1-BDC) (%): 40%
  Binding site: Adenosine
  Hit (PanDDA run, DMSO background map): TRUE
  Hit (PanDDA run, overall): TRUE
  Refined ligand occupancy (%): 60%
  X-ray crystal structure: TRUE
